# According to patent US20200140526A1 (UNIVERSITY OF ROCHESTER, published 2020):
# B1: KPF1 human monoclonal antibody (hmAb) (antibody, V domains shown)
# VH: EVQLLESGGGLVQPGGSLRISCAASGSTFGDFAMSWVRQSPGRGLEWVSVTSAGGDRTYYADSVKGRFTISRDNSKNTLYLQMNSLRGEDTAMYYCARLDSSGFHYGRPGRNWGQGTLVTVSS
# VL: DIQMTHSPPSLSASVGDRITITCQASQDISYYLIWYQQKPGKAPKPLIYDASNLEAGVPSRFSASGSGTDFTLTISSLQPEDLATYYCQQYKSLPYTFGQGTKLEIK
# Tests used:
# Assay in all cases: cell-based or functional assay
# [1] = molecular target: T1, A/Texas/36/91 H1N1 (TX H1N1) HA (influenza A virus A/Texas/36/91 H1N1)
# [2] = molecular target: MARM 1 (Influenza A virus (H1N1))
# [3] = molecular target: A/Puerto Rico/08/1934 H1N1 (PR8 H1N1) HA (influenza A virus A/Puerto Rico/08/1934 …, UniProt P03452 18-528)
# [4] = molecular target: T1, A/Texas/36/91 H1N1 (TX H1N1) HA; remark: listed apart in the source
# [5] = molecular target: A/New Caledonia/20/99 H1N1 (NC H1N1) HA (influenza A virus A/New Caledonia/20/99 …)
# [6] = molecular target: T2, pH1N1 (A/California/04/2009) HA, wild type, full length (influenza A virus A/California/04/2009 …)
# [7] = molecular target: T2, pH1N1 (A/California/04/2009) HA, wild …; remark: listed apart in the source
binder,measurement,setting,value
B1,HAI (µg/ml): least amount of hmAb that fully inhibits hemagglutination,[1],0.78 µg/mL
same,HAI (µg/ml): least amount of hmAb that fully inhibits hemagglutination,[2],> 200 µg/mL
same,"HAI (µg/ml), minimum amount of hmAb that completely inhibited hemagglutination",[3],50 µg/mL
same,"HAI (µg/ml), minimum amount of hmAb that completely inhibited hemagglutination",[4],0.78 µg/mL
same,"NT50 (µg/ml), microneutralization, crystal violet",[4],1.26 µg/mL
same,"HAI (µg/ml), minimum amount of hmAb that completely inhibited hemagglutination",[5],3.12 µg/mL
same,"NT50 (µg/ml), microneutralization, crystal violet",[5],4.56 µg/mL
same,"HAI (µg/ml), minimum amount of hmAb that completely inhibited hemagglutination",[6],0.78 µg/mL
same,"NT50 (µg/ml), microneutralization, crystal violet",[6],1.46 µg/mL
same,HAI (µg/ml): least amount of hmAb that fully inhibits hemagglutination,[7],0.39 µg/mL
same,NT (µg/ml): NT50 in the microneutralization assay,[7],0.39 µg/mL
